Mutational tolerance of the Zika virus NS2B-NS3 protease

Source: Ni et al. 2025 (doi:10.1038/s41467-025-63602-z), supplementary data.

Chain scanned (Zika virus MR766; NS2B from position 2 to 131, then the start of NS3):
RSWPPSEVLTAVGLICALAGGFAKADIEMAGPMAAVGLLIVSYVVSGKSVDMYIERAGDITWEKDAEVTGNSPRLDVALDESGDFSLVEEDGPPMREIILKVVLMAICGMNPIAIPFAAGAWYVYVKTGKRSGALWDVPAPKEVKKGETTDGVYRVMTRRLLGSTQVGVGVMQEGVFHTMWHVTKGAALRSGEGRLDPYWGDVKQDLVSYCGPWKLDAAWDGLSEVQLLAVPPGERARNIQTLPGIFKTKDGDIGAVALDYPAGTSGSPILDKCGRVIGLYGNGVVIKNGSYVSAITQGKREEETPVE

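Mutant virus pools were grown in human Huh-7.5 cells. The effect is the change in frequency of a mutant, normalised to wild type, as a mean of three replicate libraries (two for positions 207-308).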

Values are log2 effects on growth: 0 is wild type, lower means poorer growth. Substitutions are written as wild-type residue, site number, new residue. Six mutants with high scores were retested singly and none clearly outgrew wild type, so positive values are not proof of better growth. The region was split into three libraries (1-103, 104-206, 207-308). Stop codons (*) centre on -7 and mark the level of dead virus. The authors count -1 or higher as tolerated. Position 1 is the last residue of NS2A.

| mutation | log2 effect |
|---|---|
| E28* | -4.01 |
| E28A | -1.05 |
| E28C | -3.39 |
| E28D | -1.99 |
| E28F | -3.98 |
| E28G | -7.04 |
| E28H | -1.70 |
| E28I | -4.17 |
| E28K | -1.73 |
| E28L | -4.05 |
| E28M | -3.31 |
| E28N | -3.32 |
| E28P | -3.18 |
| E28Q | -0.73 |
| E28R | -3.29 |
| E28S | -2.90 |
| E28T | -1.87 |
| E28V | -2.35 |
| E28W | -5.46 |
| E28Y | -4.12 |
| M29* | -7.79 |
| M29A | -1.08 |
| M29C | -0.62 |
| M29D | -3.88 |
| M29E | -2.80 |
| M29F | 0.31 |
| M29G | -2.81 |
| M29H | -1.52 |
| M29I | -1.37 |
| M29K | -3.89 |
| M29L | -1.18 |
| M29N | -3.45 |
| M29P | -6.87 |
| M29Q | -1.40 |
| M29R | -7.16 |
| M29S | -0.78 |
| M29T | -1.27 |
| M29V | -1.02 |
| M29W | -1.86 |
| M29Y | -0.48 |
| A30* | -7.38 |
| A30C | 0.07 |
| A30D | -4.37 |
| A30E | -4.38 |
| A30F | -6.07 |
| A30G | -0.49 |
| A30H | -0.74 |
| A30I | -1.09 |
| A30K | 0.43 |
| A30L | -5.23 |
| A30M | 0.30 |
| A30N | -1.73 |
| A30P | -2.34 |
| A30Q | -2.56 |
| A30R | -2.72 |
| A30S | -1.54 |
| A30T | 0.63 |
| A30V | -0.69 |
| A30W | -5.89 |
| A30Y | -3.44 |
| G31* | -4.77 |
| G31A | -1.49 |
| G31C | -5.84 |
| G31D | -6.19 |
| G31E | -5.09 |
| G31F | -5.73 |
| G31H | -5.55 |
| G31I | -5.65 |
| G31K | -4.99 |
| G31L | -7.38 |
| G31M | -5.12 |
| G31N | -5.64 |
| G31P | -4.83 |
| G31Q | -4.54 |
| G31R | -7.86 |
| G31S | -3.98 |
| G31T | -6.64 |
| G31V | -4.34 |
| G31W | -6.34 |
| G31Y | -6.14 |
| P32* | -6.89 |
| P32A | -6.53 |
| P32C | -4.58 |
| P32D | -5.00 |
| P32E | -5.31 |
| P32F | -4.80 |
| P32G | -6.52 |
| P32H | -4.48 |
| P32I | -4.73 |
| P32K | -5.36 |
| P32L | -6.95 |
| P32M | -5.29 |
| P32N | -5.34 |
| P32Q | -6.57 |
| P32R | -7.75 |
| P32S | -6.49 |
| P32T | -6.97 |
| P32V | -6.28 |
| P32W | -5.53 |
| P32Y | -4.65 |

A selection of 13 entries from above:

mutation	log2 effect
P32*	-6.89
A30F	-6.07
E28F	-3.98
A30G	-0.49
M29K	-3.89
G31R	-7.86
A30D	-4.37
P32K	-5.36
A30H	-0.74
P32F	-4.80
P32Q	-6.57
M29R	-7.16
M29Y	-0.48